Anti-infective test results gathered from many reports (values: NIAID ChemDB through PubChem).

Shared fields: whole-cell or culture tests; species: Candida parapsilosis

Neighbouring rows are from separate reports. MIC50, MIC90 and the like: level of inhibition, or share of isolates inhibited. An empty or dashed field is not shown. ECn: concentration that inhibits the pathogen or its effect by n%.

SMILES | method | conditions | strain | endpoint | result
CN(C/C=C/C#CC(C)(C)C)Cc1cccc2ccccc12 | broth dilution | - | 52 clinical isolates | MIC90 | >16 µg/mL
CCCCCCCCOc1ccc(-c2ccc(C(=O)NC3CC(NCCN)CNC(=O)[C@@H]4[C@@H](O)[C@@H](C)CN4C(=O)[C@@H](CO)NC(=O)[C@H]([C@H](O)Cc4ccccc4)NC(=O)[C@@H]4C[C@@H](O)CN4C(=O)[C@H]([C@@H](C)O)NC3=O)cc2)cc1 | resazurin | - | NEM_7103546 | MIC | 5 µg/mL
CCC(C)CC(C)CCCCCCCCC(=O)N[C@H]1C[C@@H](O)[C@H](NCCN)NC(=O)[C@@H]2[C@@H](O)CCN2C(=O)[C@H]([C@H](O)CCN)NC(=O)[C@H]([C@H](O)[C@@H](O)c2ccc(O)cc2)NC(=O)[C@@H]2C[C@@H](O)CN2C(=O)[C@H]([C@@H](C)O)NC1=O | broth dilution | - | 1529A | MIC | 1 µg/mL
C1=C(c2cc3ccccc3o2)C2CCN1CC2 | broth dilution | - | ATCC 22019 | EC50 | >16 µg/mL
Cc1ccc(C(C)C)c(O)c1 | broth dilution / turbidity | - | PYCC 2545 | EC50 | 0.56 µM
O=c1cc(-c2ccccc2)oc2cc(O)c(O)c(O)c12 | - | - | 153.07 | MIC | 13 µg/mL
OC1(c2ccc(-c3ccccc3)cc2)CN2CCC1CC2 | broth dilution | - | ATCC 22019 | EC50 | >16 µg/mL
CCCC1=NOC(CCCCCCCCC(=O)OC)C1 | agar | - | Clinical isolate | MIC100 | 256 µg/mL
O=Cc1cc(O)ccc1O | broth dilution / turbidity | - | ATCC 22019 | EC50 | 0.88 µM
C=CC(C)(O)CCCC=C(C)C | - | - | - | MIC90 | 0.031 µg/mL
C[N+]1=CC2C(=O)c3nccc4ccnc(c34)C2C1 | - | - | - | MIC80 | >64 µg/mL
C=CCSS(=O)CC=C | broth dilution | - | - | MIC | 320 µg/mL
C1=C(c2ccc3ccccc3c2)C2CCN1CC2 | broth dilution | - | ATCC 22019 | EC50 | >16 µg/mL
c1ccc([Se][Se]c2ccccc2)cc1 | broth dilution | - | ATCC 90018 | MFC | >64 µg/mL
O=[N+]([O-])c1ccc(CNC2CCc3c(O)cccc3C2)cc1 | - | - | - | MIC | >64 µM
C[C@H]1[C@H](O)[C@@H](C)/C=C/C=C/C=C/C=C/C=C/C=C/C=C/[C@H](O[C@@H]2O[C@H](C)[C@@H](O)[C@H](N)[C@@H]2O)C[C@@H]2O[C@](O)(C[C@@H](O)C[C@@H](O)CC[C@H](O)[C@@H](O)C[C@@H](O)CC(=O)O[C@H]1C)C[C@H](O)[C@H]2C(=O)O | MTT | - | ATCC 22019 | MIC | 1.5 µg/mL
CC(C)(C)[Si](C)(C)Oc1ccc(C2=CN3CCC2CC3)cc1 | broth dilution | - | ATCC 22019 | EC50 | >16 µg/mL
O=C(O)/C=C/c1ccccc1 | broth dilution / turbidity | - | PYCC 2545 | EC50 | 0.18 µM
COc1ccc2cc(C3=CN4CCC3CC4)ccc2c1 | broth dilution | - | ATCC 22019 | EC50 | >16 µg/mL
CCCCCCCCC[C@@H](O)[C@H](C)N | - | - | MTCC 1744 | MIC | 4.9 µM
O=c1c(O)c(-c2ccccc2)oc2cc(O)cc(O)c12 | broth dilution | - | - | MIC | 40 µg/mL
COc1cc(C[C@H](C)[C@H](C)Cc2ccc(O)c(O)c2)ccc1O | broth dilution | - | CCC 124-2000 | MIC50 | 31.25 µg/mL
CN(C/C=C/C#CC(C)(C)C)Cc1cccc2ccccc12 | broth dilution | biofilm | ATCC 22019 | MIC100 | 50 µg/mL

For reference, 2 entries again:

SMILES | method | conditions | strain | endpoint | result
CN(C/C=C/C#CC(C)(C)C)Cc1cccc2ccccc12 | broth dilution | biofilm | ATCC 22019 | MIC100 | 50 µg/mL
O=c1cc(-c2ccccc2)oc2cc(O)c(O)c(O)c12 | - | - | 153.07 | MIC | 13 µg/mL